# The list shows a part of the results, in another mix than the full data. Activity calls are given as the source filed them. Cut-off read from the data, not from the text of the source: active = inhibition above about 85%; inactive = the rest.
# Assay: growth inhibition of S. aureus RN4220, primary screen, OD600 (AID 1259311);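 note: plate controls were untreated cells for no effect and reference antibiotic for full effect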
# Settings: OD600, 16 h, stronger effect = higher value
row,Compound,inhibition
1,Cc1ccccc1NP(C)(=O)Nc1ccccc1C,inactive: 0.0985%
2,CP(=O)(Nc1ccc2c(c1)OCCO2)Oc1ccccc1 (stereo unspecified),inactive: -4.88%
3,CCOP(C)(=S)SCC(=O)NC(C)(CC)C(=O)O (stereo unspecified),inactive: 3.47%
4,c1nnnn1CCn1cnnn1,inactive: 3.84%
5,CP(=O)(Nc1ccc(SC(F)(F)F)cc1)Oc1ccc(F)cc1 (stereo unspecified),inactive: 3%
6,CC(C)C(=O)NC(Sc1ccccc1)C(Cl)(Cl)Cl (stereo unspecified),inactive: 7.25%
7,O=P(Nc1nccs1)(c1ccccc1)c1ccccc1,inactive: 1.01%
8,CCNC(=S)N=C(N)N[N+](=O)[O-],inactive: 2.79%
9,Cc1c(C(c2ccc3c(c2)OCO3)c2c(C)n(C)n(-c3ccccc3)c2=O)c(=O)n(-c2ccccc2)n1C.O=[N+]([O-])c1cc([N+](=O)[O-])c(O)c([N+](=O)[O-])c1,inactive: -4.43%
10,Nc1ccc([As](=O)(O)c2ccc([N+](=O)[O-])cc2)cc1,inactive: 6.26%
11,C(Cc1nn[nH]n1)Cc1nn[nH]n1,inactive: 3.46%
12,O=C(OC1CN2CCC1CC2)c1cccc(Cl)c1 (stereo unspecified),inactive: 3.07%
13,O=[N+]([O-])c1ncn(CCn2cnc([N+](=O)[O-])n2)n1,inactive: -4.73%
14,CC(=O)NC(SC(=S)N(C)C)C(Cl)(Cl)Cl (stereo unspecified),inactive: 13.8%
15,O=[N+]([O-])c1ccc(OP2(=O)COCCO2)cc1 (stereo unspecified),inactive: 2.07%
16,O=[As](O)(c1ccccc1)c1ccc(O)cc1,inactive: 1.58%
17,O=[N+]([O-])c1cc([N+](=O)[O-])c(NCC2CCS(=O)(=O)C2)c([N+](=O)[O-])c1 (stereo unspecified),active: 86.9%
18,Cc1cc(-c2cccc3ccccc23)c(C)cn1.O=[N+]([O-])c1cc([N+](=O)[O-])c(O)c([N+](=O)[O-])c1,inactive: 1.97%
19,CN(C(=O)Cc1ccc(Cl)c(Cl)c1)C1CC[C@@]2(CCCO2)CC1N1CCCC1 (stereo partly specified),inactive: 3.64%
20,CCN(C(=NP(=O)(N1CCOCC1)N1CCOCC1)N1CCOCC1)c1ccc(OC)cc1,inactive: 5.93%
21,O=P(Nc1nc2ccccc2s1)(c1ccccc1)c1ccccc1,inactive: 2.12%
22,COc1ccc(NP(C)(=O)Oc2ccccc2OC)cc1 (stereo unspecified),inactive: 6.53%
23,COc1ccc(OP(C)(=O)Nc2cccc(Br)c2)cc1 (stereo unspecified),inactive: 3.68%
24,CC(C)C=NN=C(N)N[N+](=O)[O-],inactive: -0.161%

row,Compound,inhibition
1,COc1ccc(N)c([N+](=O)[O-])c1[N+](=O)[O-],inactive: 3.69%
2,C=CCN1CCN(CCOC(=O)C(O)(c2ccccc2)c2ccccc2)CC1,inactive: -2%
3,O=P(Nc1ccccn1)(c1ccc(Br)cc1)c1ccc(Br)cc1,inactive: 1.88%
4,CN(C)C1(CNC(=O)c2ccc(Cl)c(S(N)(=O)=O)c2)CCCCC1,inactive: 0.559%
5,NS(=O)(=O)c1cccc(NC(=O)COC(=O)C(O)(c2ccccc2)c2ccccc2)c1,inactive: -1.53%
6,O=[As](O)(c1cccs1)c1cccs1,inactive: 11.7%
7,Cc1ccc(OCC(=O)OC2CN3CCC2CC3)cc1 (stereo unspecified),inactive: 3.8%
8,CP(=O)(Nc1ccc(SC(F)(F)F)cc1)Oc1ccccc1 (stereo unspecified),inactive: 1.33%
9,Nc1cccc([As](=O)(O)c2ccccc2)c1,inactive: 1.31%
10,CCCOc1ccc(NP(C)(=O)Oc2ccc(Cl)cc2)cc1 (stereo unspecified),inactive: 2.97%
11,O=P1(Nc2ncccn2)COc2ccccc2OC1,inactive: 4.44%
12,COc1ccccc1OP(C)(=O)Nc1c(C)cccc1C (stereo unspecified),inactive: 2.88%
13,CN1CCCCC1COC(=O)C1(O)c2ccccc2CCc2ccccc21 (stereo unspecified),inactive: 4.09%
14,O=C(/C=C/c1ccccc1)OC1CN2CCC1CC2 (stereo unspecified),inactive: 4.08%
15,CCCC1OP(=O)(Nc2ccccc2)OCC1CC (stereo unspecified),inactive: 5.74%
16,O=[N+]([O-])c1cc([N+](=O)[O-])c(Nc2nnnn2CCO)c([N+](=O)[O-])c1,inactive: 32.3%
17,CN(C)C1(CNC(=O)c2ccc(S(C)(=O)=O)cc2)CCCCC1,inactive: 3.75%
18,CCOC(=O)C(CC)C1=NC(C)(C)Cc2ccccc21.O=[N+]([O-])c1cc([N+](=O)[O-])c(O)c([N+](=O)[O-])c1 (stereo unspecified),inactive: 3.4%
19,COc1cc(C2NCCC3(OCCO3)C2(C)C)cc(OC)c1OC.O=[N+]([O-])c1cc([N+](=O)[O-])c(O)c([N+](=O)[O-])c1 (stereo unspecified),inactive: 5.86%
20,Cc1nn(-c2ccccc2)c2c1P(=O)(N1CCOCC1)N(C)C(c1ccccc1)=N2 (stereo unspecified),inactive: 2.49%
21,CC1CCC(C(C)C)C(OP(=O)(Nc2ccccn2)c2ccccc2)C1 (stereo unspecified),inactive: 5.55%
22,Cc1ccc(C(=O)OC2CN3CCC2CC3)cc1 (stereo unspecified),inactive: 5.58%
23,O=[As](O)(c1ccccc1Br)c1ccccc1Br,inactive: -1.53%
24,Cc1nc2ccc3ccccc3c2s1.O=[N+]([O-])c1cc([N+](=O)[O-])c(O)c([N+](=O)[O-])c1,inactive: 8.37%

row,Compound,inhibition
1,CC1(CBr)Cn2c(nc3ccccc3c2=O)S1 (stereo unspecified),inactive: 5.98%
2,COc1ccccc1CNC(=O)COC(=O)C(O)(c1ccccc1)c1ccccc1,inactive: 4.01%
3,O=[N+]([O-])c1cc([N+](=O)[O-])c(-c2cnn(-c3ccccc3)c2)c([N+](=O)[O-])c1,inactive: 8.27%
4,Clc1n[nH]nc1-c1nn[nH][15n]1,inactive: -1.16%
5,CC(C)(C)C(=O)NC(Sc1ncccn1)C(Cl)(Cl)Cl (stereo unspecified),inactive: 1.16%
6,CCOP(=O)(Nc1ccc(C)cn1)OCC,inactive: 3.16%
7,O=P1(Nc2ccccn2)COc2ccccc2OC1,inactive: 3.67%
8,O=[N+]([O-])c1cc([N+](=O)[O-])c(-n2nnc3ccccc32)c([N+](=O)[O-])c1,inactive: 1.97%
9,CCOP(=O)(Nc1cccc2ccccc12)OCC,inactive: 5.97%
10,CCCOP(=S)(Nc1nc(N)cc(=O)[nH]1)OCCC,inactive: 0.816%
11,Cc1ccc(C)c(NP(C)(=O)Oc2ccccc2)c1 (stereo unspecified),inactive: 4.75%
12,CP(=O)(Nc1cccc(Br)c1)Oc1ccccc1 (stereo unspecified),inactive: 1.85%
13,Cc1cc(C)cc(OP(C)(=O)Nc2ccccn2)c1 (stereo unspecified),inactive: 5.14%
14,Cc1ccc(NCCc2c([N+](=O)[O-])cc([N+](=O)[O-])cc2[N+](=O)[O-])cc1,inactive: 0.801%
15,CCOC(=O)c1ccc(NP(C)(=O)Oc2cc(C)cc(C)c2)cc1 (stereo unspecified),inactive: 5.84%
16,CC1C=CCP(=O)(Oc2ccccc2)O1 (stereo unspecified),inactive: 2.41%
17,O=[As](O)(c1cccc(O)c1)c1cccc(O)c1,inactive: -0.571%
18,Cc1cccc(OCC(=O)OC2CN3CCC2CC3)c1 (stereo unspecified),inactive: 0.787%
19,Cc1cc(C)cc(OP(C)(=O)Nc2ccc(C)cc2C)c1 (stereo unspecified),inactive: -0.968%
20,COc1cc(C(=O)NCC2(N3CCOCC3)CCCCC2)cc(Cl)c1OC(C)C,inactive: 1.71%
21,O=[As](O)(O)c1cccnc1,inactive: 3.47%
22,CS(=O)(=O)c1ccc(Cl)c(NC(=O)COC(=O)C(O)(c2ccccc2)c2ccccc2)c1,inactive: 2.32%
23,COc1ccccc1OP(C)(=O)Nc1cccc(Br)c1 (stereo unspecified),inactive: 4%
24,O=C(OC1CN2CCC1CC2)c1ccc(Cl)cc1 (stereo unspecified),inactive: -1.29%

row,Compound,inhibition
1,CN(C)C(=O)c1cc([N+](=O)[O-])cc2c1-c1c(cc([N+](=O)[O-])cc1[N+](=O)[O-])C2=O,inactive: 13.5%
2,O=[N+]([O-])c1ccc2c(c1)nnn2O,inactive: -1.35%
3,CC1=NCCc2c1[nH]c1ccccc21.O=[N+]([O-])c1cc([N+](=O)[O-])c(O)c([N+](=O)[O-])c1,inactive: 4.82%
4,Cc1ccc(NC(=NP(=O)(N2CCOCC2)N2CCOCC2)N2CCOCC2)cc1,inactive: -0.0921%
5,N#CCCN(C(=O)COC(=O)C(O)(c1ccccc1)c1ccccc1)c1ccc(F)cc1,inactive: -0.171%
6,CCOP1(=S)c2c(C)nn(CCC#N)c2N=C(c2ccc(F)cc2)N1C (stereo unspecified),inactive: 3.28%
7,NC(=O)Nc1ccc([As](=O)(O)O)cc1,inactive: -1.22%
8,Nc1ccccc1[As](=O)(O)c1ccccc1,inactive: 2.06%
9,O=C(O)COc1ccc([As](=O)(O)O)cc1[N+](=O)[O-],inactive: 5.11%
10,CCOP1(=S)c2c(C)nn(CCC#N)c2N=C(c2ccccc2F)N1C (stereo unspecified),inactive: -4.57%
11,O=C(O)c1cccc(Nc2c([N+](=O)[O-])cc([N+](=O)[O-])cc2[N+](=O)[O-])c1,inactive: 5.92%
12,O=P(Nc1nccs1)(c1ccccc1)c1nc2ccccc2s1 (stereo unspecified),inactive: 1.18%
13,O=P(Nc1nccs1)(Oc1ccccc1)Oc1ccccc1,inactive: 6.26%
14,Cc1cc(C)cc(OP(C)(N)=O)c1 (stereo unspecified),inactive: 1.45%
15,O=C(OC1CN2CCC1CC2)c1cccc2[nH]cnc12 (stereo unspecified),inactive: 0.471%
16,CCN(CC)C(=S)SC(NC=O)C(Cl)(Cl)Cl (stereo unspecified),inactive: 9.65%
17,COc1ccccc1OP(C)(=O)Nc1cc(Cl)ccc1C (stereo unspecified),inactive: 5.5%
18,CC(C)NC(=O)NP(=O)(Oc1ccccc1)Oc1ccccc1,inactive: -1.69%
19,O=[N+]([O-])c1cc([N+](=O)[O-])c(-c2ccn[nH]2)s1,inactive: 51.8%
20,COc1ccc(OP(C)(=O)Nc2cccc(F)c2)cc1 (stereo unspecified),inactive: 1.89%
21,COc1ccccc1OP(C)(=O)Nc1ccc(C)cc1 (stereo unspecified),inactive: 5.4%
22,CC(C)c1ccc(OP(=O)(Nc2ccccn2)Oc2ccccc2F)cc1 (stereo unspecified),inactive: 7.7%
23,Cc1ccc(NP(C)(=O)Oc2ccccc2)c(C)c1 (stereo unspecified),inactive: 3.45%
24,CCOC(=O)c1ccc(NP(C)(=O)Oc2ccccc2)cc1 (stereo unspecified),inactive: -2.71%

# — PubChem BioAssay AID1259311 (ICCB-Longwood Screening Facility, Harvard Medical School, 2017)
